Anti-infective test results gathered from many reports (values: NIAID ChemDB through PubChem).

Shared fields: whole-cell or culture tests; agent: Mycobacterium tuberculosis

Two numbers with a dash give a range or band. MIC50, MIC90 and the like: level of inhibition, or share of isolates inhibited. An empty or dashed field is not shown. Neighbouring rows are from separate reports. ECn is the concentration giving n% inhibition of infection, replication or growth. MIC bound: limit read from a one-dose screen. Percent inhibition refers to the dose given; in toxicity tests it is the harm to the cells.

| SMILES | method | strain | cell line | setting | read-out | tested at | value |
|---|---|---|---|---|---|---|---|
| CSc1ccc(-c2nn(-c3ccccc3)cc2C2CC(c3ccc(Cl)cc3)=NN2C(C)=O)cc1 | BACTEC | H37Rv |  |  | inhibition | 6.25 µg/mL | 42% |
| NC(=S)N/N=C\c1c(C(=O)O)[nH]c2ccccc12 | broth dilution | H37Rv |  |  | MIC |  | 0.2 µg/mL |
| C[C@@H]1[C@H]2C[C@@H](C[C@H]1NCCNC1CCCCCCC1)C2(C)C |  |  |  |  | MIC |  | 12.5 µg/mL |
| Nc1ccc(C(=O)O)c(O)c1 |  |  |  |  | MIC |  | 1–2 µg/mL |
| COc1cccc2c1C(=O)c1c(O)c3c(c(O)c1C2=O)C[C@@](O)(/C(C)=N/NC(=O)c1ccccc1)CC3O[C@H]1CC(N)C(O)C(C)O1 | BACTEC | H37Rv |  |  | MIC bound |  | >12.5 µg/mL |
| O=c1cc2oc3cc(O)c(O)cc3c(-c3ccccc3O)c-2cc1O | broth dilution | H37Rv |  |  | MIC90 |  | 133 µg/mL |
| CC(=O)Nc1ccc(S(=O)(=O)/C(=C/c2ccc(Cl)o2)c2ccc([N+](=O)[O-])o2)cc1 | BACTEC | H37Rv |  |  | inhibition | 12.5 µg/mL | 14% |
| CO/C(=N\N=C\c1cccc(Cl)c1)c1ccncc1 |  | 6 PI |  |  | MIC |  | >20 µg/mL |
| Cc1nc(N)c2ncn([C@@H]3O[C@H](CO)[C@@H](O)[C@H]3O)c2n1 |  | H37Rv |  |  | MBC |  | >64 µg/mL |
| COC(=O)c1c(C)cccc1C1CN=NC12Cc1ccccc1C2=O | resazurin | H37Rv |  |  | MIC bound |  | >6.25 µg/mL |
| O=c1ccc2ccc(OCc3ccc(Br)cc3)cc2o1 | fluorescence | H37Rv |  |  | inhibition | 1 µM | 3.72% |
| NC1[C@H]2CN(c3nc4c(cc3F)c(=O)c(C(=O)O)cn4-c3ccc(F)cc3F)C[C@@H]12 |  | 33 strains |  |  | MIC50 |  | 16 µg/mL |
| CC1COc2c(N3CCN(C)CC3)c(F)cc3c(=O)c(C(=O)O)cn1c23 |  |  |  |  | MIC |  | 0.5–1 µg/mL |
| CCCCc1ncc(C(N)=O)nc1Sc1ccccc1 |  | H37Rv |  |  | MIC |  | >6.25 µg/mL |
| Cc1c(Cl)c(=O)oc2cc(OCc3ccccc3)ccc12 | fluorescence | H37Rv |  |  | inhibition | 100 µM | 24.48% |
| CCOC(=O)c1c(C)[nH]c(/C=N\NC(=O)c2ccncc2)c1C |  | H37Rv |  |  | MIC |  | 0.78 µg/mL |
| OCC(CN1CCN([C@@H](Cc2ccccc2)CN2CCCC2CN2CCNC[C@@H]2Cc2ccccc2)C[C@@H]1Cc1ccccc1)c1ccccc1 | broth dilution | H37Rv |  |  | MIC |  | 3.9 µg/mL |
| CO/C(=N\N=C\c1ccc(Cl)cc1)c1ccncc1 |  | 16PI |  |  | MIC |  | >20 µg/mL |
| c1ccc(CCN2CCN([C@@H](Cc3ccccc3)CN3CCCC3CN3CCNC[C@@H]3Cc3ccccc3)C[C@@H]2Cc2ccccc2)cc1 | broth dilution | H37Rv |  |  | MIC |  | 2 µg/mL |
| CC/C(=N\NC(=O)c1ccncc1)c1ccc(Cl)cc1 |  | H37Rv | VERO |  | MIC |  | 0.1 µg/mL |
| Cn1c(=O)cc(Oc2nc(Nc3ccc(C#N)cc3)nc(Sc3nnc(-c4ccncc4)o3)n2)c2ccccc21 | agar |  |  |  | inhibition | 62.5 µg/mL | 97% |
| Nc1nc2c(c(-c3ccccc3Cl)n1)COC/C2=C/c1ccccc1Cl | resazurin | H37Rv |  |  | MIC |  | >12.5 µg/mL |
| CSc1ccc(C2=NNC(c3cn(-c4ccccc4)nc3-c3ccc(SC)cc3)C2)cc1 | BACTEC | H37Rv |  |  | inhibition | 6.25 µg/mL | 18% |
| NNC(=O)c1ccncc1 |  | G96V |  |  | MIC |  | 0.06 µg/mL |
| C/C=[N+](\NC(=O)CCCC(=O)N/[N+](=C\C)C1(O)Cc2c(O)c3c(c(O)c2C(OC2CC(N)C(O)C(C)O2)C1)C(=O)c1c(OC)cccc1C3=O)C1(O)Cc2c(O)c3c(c(O)c2C(OC2CC(N)C(O)C(C)O2)C1)C(=O)c1c(OC)cccc1C3=O | BACTEC | H37Rv |  |  | MIC bound |  | >12.5 µg/mL |
| c1ccc(CCN2CCN([C@@H](Cc3ccccc3)CN3CCCC3CN3CCNC[C@H]3Cc3ccccc3)C[C@@H]2Cc2ccccc2)cc1 | broth dilution | H37Rv |  |  | MIC |  | 3.9 µg/mL |
| CCCCCCCCCCCCCCCCOc1ccc(S(=O)(=O)N/N=c2\sc(-c3ccccc3Cl)nn2C)cc1C(=O)O | resazurin | H37Rv |  |  | inhibition | 6.25 µg/mL | -6% |
| C/C(=C\CO)CCC[C@H](C)CCC[C@H](C)CCCC(C)C |  | H37Rv |  |  | EC50 |  | <100 µg/mL |
| CN(C)c1ccc(/C=N/NC(=O)c2cnc3ccccc3c2)cc1 | BACTEC | H37Rv |  |  | MIC bound |  | >12.5 µg/mL |
| CSc1ccc(-c2nn(-c3ccccc3)cc2C2CC(c3cc(Br)c(O)c(Br)c3)=NN2C(C)=O)cc1 | BACTEC | H37Rv |  |  | inhibition | 6.25 µg/mL | 11% |
| COc1cc(-c2nnc(Sc3nc(Nc4ccc(C#N)cc4)nc(Oc4cc(=O)n(C)c5ccccc45)n3)o2)cc(OC)c1OC | agar |  |  |  | EC99 |  | 12.5 µg/mL |
| CCCSc1nc(C(N)=O)cnc1CC(C)C |  | H37Rv |  |  | MIC |  | >12.5 µg/mL |
| Cc1cc(O)c2c(c1)C(=O)C(c1c(C)cc3c(c1O)C(=O)C=CC3=O)=CC2=O |  | H37Rv |  |  | MIC |  | 8 µg/mL |
| COc1cc2c(cc1Oc1ccc(OC)c3c1CC1c4c(cc(OC)c(OC)c4-3)CCN1C)CC1c3c(cc(OC)c(OC)c3-2)CCN1C |  | TAC-R |  |  | MIC |  | 12.5 µg/mL |
| Cc1cc(O)c2c(c1)C(=O)C=CC2=O |  | H37Rv |  |  | MIC |  | 0.5 µg/mL |
| O=C(N/N=C/C=C/c1ccccc1)c1ccco1 | BACTEC | H37Rv |  |  | MIC bound |  | >12.5 µg/mL |
| Cn1c(=O)cc(Oc2nc(Nc3ccc(C#N)cc3)nc(Oc3cc(=O)n(C)c4ccccc34)n2)c2ccccc21 | agar |  |  |  | MIC |  | 50 µg/mL |
| CCCCCC1=CC(=O)C=C(OC)C1=O |  |  |  |  | MIC |  | 60.3 µg/mL |
| CC(C)CCC[C@@H](C)CCC[C@@H](C)CCCC(C)CC(=O)O |  | H37Rv |  |  | MIC |  | >128 µg/mL |
| N#CCCN(C1=NN(C(=O)CC(=O)Nc2ccc(Cl)cc2)C(c2ccccc2)C1)c1ccc(Cl)cc1 | resazurin | H37Rv |  |  | MIC bound |  | >6.25 µg/mL |
| CSc1nc(C(N)=O)cnc1C(C)(C)C |  | H37Rv |  |  | MIC |  | >12.5 µg/mL |
| CCCCCCCCCCSc1nc(SCCCCCCCCCC)c2ncn(COCCO)c2n1 | BACTEC | H37Rv |  |  | inhibition | 6.25 µg/mL | 0% |
| CCCc1cc(C(N)=S)ccn1 |  |  |  |  | MIC |  | 0.5–1.5 µg/mL |
| COc1cnc2ccc(=O)n(CCN3CCC(NCc4cc(Cl)c(Cl)cn4)CC3)c2c1 | resazurin | BCG |  |  | MIC |  | ≤0.01 µg/mL |
| CCCCN(C)C(=O)COc1ccc(/C=C(/C(=O)c2ccc(OC)cc2)c2ccccc2)cc1 |  | H37Rv |  |  | MIC100 |  | >250 µg/mL |
| NC[C@H]1O[C@H](O[C@H]2[C@H](O)[C@@H](O[C@H]3O[C@H](CO)[C@@H](O)[C@H](N)[C@H]3O)[C@H](N)C[C@@H]2N)[C@H](O)[C@@H](O)[C@@H]1O |  |  |  |  | MIC |  | 2–4 µg/mL |
| Cc1cn2c(C(=O)NCc3ccc(N4CCN(c5ccc(C(F)(F)F)cn5)CC4)c(F)c3)c(C)nc2s1 | luminescence | H37Rv | Human liver microsomes |  | EC50 |  | 18.4 µM |
| CCCCCCCCCCSc1nc(N)nc2c1ncn2CC(=O)N[C@H](Cc1ccccc1)C(=O)OC | BACTEC | H37Rv |  |  | inhibition | 6.25 µg/mL | 0% |
| CC(=N)c1cc(CNCc2cccc(C(F)(F)F)c2)c(=O)[nH]c1Nc1ccccn1 | broth dilution | H37Rv |  |  | MIC |  | >100 µM |
| CO[C@H]1/C=C/O[C@@]2(C)Oc3c(C)c(O)c4c(O)c5nc(ncc5c(O)c4c3C2=O)/C(C)=C\C=C\[C@H](C)[C@H](O)[C@@H](C)[C@@H](O)[C@@H](C)[C@H](OC(C)=O)[C@@H]1C |  | 243 |  |  | MIC |  | 0.25 µg/mL |
| CCCCCCCCCCSc1nc(N)nc2c1ncn2CC(=O)N[C@H](CO)C(=O)OC | BACTEC | H37Rv |  |  | inhibition | 6.25 µg/mL | 0% |
| Cc1ccc(NC(=O)c2ccc3cc(O)ccc3c2)cc1 | broth dilution / visual reading | H37Ra ATCC 25177 |  |  | MIC |  | 27 µM |
| CC(=O)NC[C@H]1CN(c2ccc(N3CCOCC3)c(F)c2)C(=O)O1 | resazurin | ss18b |  |  | MIC |  | 0.4 µg/mL |
| Clc1ccc(Oc2ncnc3nc[nH]c23)cc1 | BACTEC | H37Rv |  |  | inhibition | 6.25 µg/mL | 0% |
| CCOC(=O)c1[nH]c2ccc(OC)cc2c1/C=N\NC(N)=S | broth dilution | H37Rv |  |  | MIC |  | 0.2 µg/mL |
| N=C(N)c1ccc(-c2ccc(-c3ccccc3)o2)cc1 | BACTEC | H37Rv |  |  | MIC bound |  | ≤12.5 µg/mL |
| CSc1nc(C(N)=S)cnc1CC(C)C |  | H37Rv |  |  | MIC |  | >12.5 µg/mL |
| NC(=O)c1cnccn1 |  | TB189 |  | 7 d | EC50 |  | <800 µg/mL |
| Cn1c(=O)cc(Oc2nc(Nc3ccc(C#N)cc3)nc(Nc3cnccn3)n2)c2ccccc21 | agar |  |  |  | MIC |  | 250 µg/mL |
| CSc1ccc(-c2nn(-c3ccccc3)cc2C2CC(c3ccccc3O)=NN2)cc1 | BACTEC | H37Rv |  |  | inhibition | 6.25 µg/mL | 0% |
| CCOC(=O)c1[nH]c(C)c(/C=N\NC(=O)c2ccncc2)c1C |  | H37Rv |  |  | inhibition | 6.25 µg/mL | 97% |
| C/C(=N\NC(=O)c1ccncc1)c1ccccc1F |  | 6 PI |  |  | MIC |  | >20 µg/mL |
| CCOC(=O)c1cc(-c2ccc(Cl)cc2)n(CCC(=O)N/N=C/c2ccccc2O)c1C |  | H37Rv |  |  | inhibition | 6.25 µg/mL | 96% |
| Cc1cccc(N=Nc2c(-c3ccccc3)nn(C(=S)S)c2C)c1C | BACTEC | H37Rv |  |  | MIC bound |  | ≤128 µg/mL |
| Cc1cccc(Oc2nc(N)nc3nc[nH]c23)c1 | BACTEC | H37Rv |  |  | inhibition | 6.25 µg/mL | 0% |
| Cc1ccc(S(=O)(=O)N/N=C2\COC(C)C2)cc1 | BACTEC | H37Rv |  |  | MIC bound |  | >12.5 µg/mL |
| CO/C(=N\N=C\c1ccc(F)cc1)c1ccncc1 |  | 6 PI |  |  | MIC |  | >20 µg/mL |
| COc1cc2c(c(OC)c1)C(O)=C1C(=O)C3C(O)=C(C(=O)NC(C)(C)C)C(=O)C(NC(=S)c4ccccc4)C3CC1C2 |  | H37Rv |  |  | inhibition | 6.25 µg/mL | 69% |
| Cc1cccc(Oc2nc(Cl)nc3nc[nH]c23)c1 | BACTEC | H37Rv |  |  | inhibition | 6.25 µg/mL | 0% |
| Cc1csc(C(C)(O)c2nnc(Nc3ncn(Cc4c(F)cccc4F)n3)s2)n1 |  | M103L |  |  | MIC |  | >25 µM |
| Cn1c(=O)cc(Oc2nc(Nc3ccc(C#N)cc3)nc(Nc3nc4ccccc4s3)n2)c2ccccc21 | agar |  |  |  | MIC |  | 200 µg/mL |
| CCCCSc1nc(C(N)=S)cnc1CCCC |  | H37Rv |  |  | inhibition | 12.5 µg/mL | 87% |
| CC(=O)Oc1c(C)c(O)c(C(C)=O)c2c1C1(C)C(=O)C(C(C)=O)=C(O)C=C1O2 | BACTEC | H37Rv |  |  | MIC bound |  | ≤12.5 µg/mL |
| Cc1ccc2[nH]c(C(=O)O)c(/C=N\NC(N)=S)c2c1 | broth dilution | H37Rv |  |  | MIC |  | 0.2 µg/mL |
| O=C(/C=C/c1ccc([N+](=O)[O-])o1)N1CCN(Cc2ccccc2)CC1 | BACTEC | H37Rv |  |  | inhibition | 12.5 µg/mL | 100% |
| O=c1ccc2ncccc2n1CCN1CCC(NCc2cc(Cl)c(Cl)cn2)CC1 | resazurin | Canettii |  |  | MIC |  | 0.15 µg/mL |
| CCCc1ncc(C(N)=S)nc1SC |  | H37Rv |  |  | inhibition | 12.5 µg/mL | <90% |
| Cc1ccccc1-c1nc(/C=C2/C(=O)C=Cc3ccccc32)c(O)o1 | BACTEC | H37Rv |  |  | MIC bound |  | >12.5 µg/mL |
| CCOC(=O)C/C(C)=N/NC(=O)CCn1c(-c2ccc(Cl)cc2)cc(C(=O)OCC)c1C |  | H37Rv |  |  | inhibition | 6.25 µg/mL | 94% |
| Cc1ccc(NC(=O)c2ccccc2)cc1Cl | BACTEC | H37Rv |  |  | MIC |  | 3.13 µg/mL |
| Cc1cc(=O)oc2cc(OCc3ccc(Br)cc3)ccc12 | fluorescence | H37Rv |  |  | inhibition | 100 µM | 66.84% |
| COc1ccc2c3c(c(=O)n(C)c2c1OC)C=CC(C)(C)O3 | BACTEC | H37Rv |  |  | MIC bound |  | >12.5 µg/mL |
| O=c1cc(C(F)(F)F)c2ccc(OCc3ccc(Br)cc3)cc2o1 | fluorescence | H37Rv |  |  | inhibition | 100 µM | 43.91% |
| Cc1ccc(C(F)(F)F)cc1CNCc1cc(C(=N)C(C)C)c(Nc2ccccc2)[nH]c1=O | broth dilution | H37Rv |  |  | MBC |  | <0.5 µM |